Human monoclonal antibodies against the spike receptor-binding domain (heavy:light variable regions). IC50 against pseudoviruses bearing the spike of naturally observed variants; lower = stronger; >10 µg/ml means not reached at the top dose. No active / inactive call. The stated detection limit is 0.0005 µg/ml; values near or below 0.001 µg/ml lie at the floor of the assay.
B1: BD56-535 (protein)
chain 1: QITLKESGPTLVKPTQTLTLTCTFSGFSLSSSGEGVAWIRQPPGKALEWLALIYWDNDKRYSPSLKSRLTITKDTSKNQVVFRMTNMDPVDTATYYCAQTPGIDVMFDSWGQGTLVTVSS
chain 2: QSALTQPASVSGSPGQSVTISCTGTSSDLGAFNYVSWYQQHPGKAPRLMIYDVSNRPSGVSNRFSGSKSGNTASLTISGLQAQDEADYFCSSYTTSSVVFGGGTKLTVL
B2: BD56-537 (protein)
chain 1: EVQLVESGGGLVQPGRSLRLSCAVSEFTFDDYAMHWVRQAPGKGLEWVSGISWNGGIIGYADSVKGRFTISRDNAKNSLYLQMISLRPEDTAWYYCAKAVWFKELSEYSFDYWGQGTLVTVSS
chain 2: QSALTQPASVSGSPGQSITISCTGTSSDVGGYNYVSWYQQHPGKAPKLMIYDVNKRPSGISNRFSGSKSGNTASLTISGLQAEDETDYYCSSYTSDSTVVFGGGTKLTVL
B3: BD56-539 (protein)
chain 1: QVQLVQSGAEVKKTGSSVKVSCRASGGTFSSHPISWVRQAPGQGLEWVGRIIPIVGIADYAQKLQGRVTLTADKSTSAAYMELSSLRSEDTAVYYCARDQGYSGSGSSYFFDPWGQGTLVTVSS
chain 2: QSVLTQPPSVSGAPGQRVTISCTGGNSNIGAGYDVHWYQQLPGTAPKLLIYVNSNRPSGVPDRFSGSKSGTSASLAITGLQAEDEADYYCQSYDSSLSASVFGGGTKLTVL
B4: BD56-540 (protein)
chain 1: QVQLVESGGGVVQPGRSLRLSCAASGFTFRDYAIHWVRQAPGKGLEWVAVISYDGSYKDYADSVKGRFTISRDNSKNTLYLQMNTLRDEDTSVYYCAREGHATVTTLFDYWGQGTLVTVSS
chain 2: DIQMTQSPSSLSASVGDRVTITCRASQSISSYLNWYQQKPGKAPKLLIYAASSLESGVPSRFSGSGSGTDFTLTIRSLQPEDFATYYCQQSYSNPSITFGQGTRLEIK
B5: BD56-545 (protein)
chain 1: QVQLVQSGAEVKKPGASVKVSCKVSGYTLSELSMHWVRQAPGKGLEWMGGFDPEDGETIYAQKFQGRVTMTEDTSTDTAYMELSSLRSEDTALYYCATDFAGAGEPPTVAFVFDYWGQGTLVTVSS
chain 2: EIVLTQSPGTLSLSPGERATLSCRASQSVNSRCLAWYQQKPGQAPRLLIYGASNRATGIPDRFSGSGSGTEFTLTISRLEPEDFAVYYCQQYGSSSYTFGQGTKLEIK
B6: BD56-546 (protein)
chain 1: QVQLVQSGAEVKKPGSSVKVSCKASGGTFSSYTISWVRQAPGQGLEWMGRIITMLGIANYAEKFQGRVTITADKSTSTAYMELSSLRSEDTAVYYCARIGQQLLSDWYFDLWGRGTLVTVSS
chain 2: QSALTQPPSVSGAPGQRVTISCTGSNSNIGAGYAVHWYQQLPGTAPKLLIYGNSNRPSGVPDRFSGSKSGTSASLAITGLQAEDEADYYCQSYDSSLSEEVFGTGTKVTVL
B7: BD56-549 (protein)
chain 1: QVLLVESGGGVVQPGRSLRLSCAASGFTFSNYGMHWVRQAPGKGLEWVAVMSSDGSYRSHADSVKGRFTISRDNSKNTLYLQMNSLRAEDTAVYYCARDATAGTSMVTLFDYWGQGTLVTVSS
chain 2: DIQMTQSPSSLSASVGDRVTITCRASQSISNYLSWYQQKPGKAPKLLIYTTSSLQSGVPSRFSGGGSGTEFTLTNSNLQPEDFATYYCQQSYSTPPWTFGQGTKLEIK
B8: BD56-551 (protein)
chain 1: QVQLVQSGAEVKKPGSSVKVSCKASGGIFSSNGISWVRQAPGQGLEWMGGIIPIFGTVNYAQEFQGRVTITADESTSTAYMELSSLRSEDTAVYYCAREMETSPLYGMDVWGQGTTVTVSS
chain 2: DIQMTQSPSSLSASVGDRVTITCRASQSIRTYLNWYQQKPGKAPNLLIYAASTLESGVPSRFSGSGSGTDFTLTISSLQPEDFAIYYCQQSYRTVTFGGGTKVEIK
B9: BD56-552 (protein)
chain 1: QVQLVESGGGVVQPGRSLRLSCAASGFTFSSYGMHWVRQAPGKGLEWVAGIWHDGSNKYHADSVKGRFTISRDNSKDTLYLQMNSLRAEDTAVYYCARDHLIAPVHGMDVWGQGTTVTVSS
chain 2: DIQMTQSPSSLSAFVGDRVTITCRASQSISRYLNWYQQKPGKAPKLLIYAASSLESGVPSRFSGGGSGTDFTLTINSLQPEDFAMYYCQQRYTTPPTFGQGTKVEIK
B10: BD56-555 (protein)
chain 1: QVQLVESGGDVVQPGRSLRLSCAASGFTFSTSVMHWVRQAPGKGLEWVAVISDDGSIKYYVDSVKGRFTISRDNSKNTLFLQMNSLTPEDTAVYYCAKDVEAVVSATDVLEHWGQGTLVTVSS
chain 2: DIQMTQSPSSLSASVGDRVTITCRASQSIINYLNWYQHKPGKAPKLLIYAASTLQSGVPSRFSGSGSGTDFTLTIRSLQPEDFATYYCQQSYSTPPLTFGGGTKVEIK
B11: BD56-556 (protein)
chain 1: QMHLVQSGPEVKKPGTSVRVSCKASTFTFATSAVQWVRQARGQRLEWIGWIVVGSGDTNYAQKFQERVTITRDMSKSAAYLELNSLRSEDTALYYCAAPHCNRTTCYDGFDMWGQGTMVTVSS
chain 2: EIVLTQSPGILSLSPGERATLSCRASQSVRSSYLGWYQQKAGQAPRLLIYGASSRATGVPDRFGGSGSGTDFTLTISRLEPEDFAVYYCQQYGSSPWTFGQGTKVEIK
B12: BD56-559 (protein)
chain 1: EVQLVESGGGWVQPGGSLRLSCAASGFTFSNYDMHWVRQTTGKGLDWVSTIGTAGDTYYPDSVKGRFTISRENAKNSLYLQMNSLRAGDTAVYYCARVGYSGSGSQEFRYWYLDLWGRGTLVTVSS
chain 2: DIEMTQSPSSLSASVGDRVTITCRASQSISTYLNWYQQKPGKAPKILIYAASSLQSGVPSRFSGSGSGTDFTLTISSLQPEDFATYYCQQSYTTPLYTFGQGTRLEIK

Each binder was assayed against SARS-CoV-2 Omicron BA.1 spike pseudovirus (assay: pseudovirus neutralization IC50; higher = weaker neutralization).
Description: (§1)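 Single-round VSV luciferase pseudovirus mixed with antibody dilutions for 1 h and put on Huh-7 cells for about a day; IC50 from the dose curve.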
In the case of B1, the “pseudovirus neutralization IC50” value is reported as 0.0122 µg/mL. In the case of B2, the “pseudovirus neutralization IC50” value is reported as 0.036 µg/mL. For B3, the “pseudovirus neutralization IC50” value was 0.455 µg/mL. B4 was tested, and the “pseudovirus neutralization IC50” value was 2.38 µg/mL. With B5 the “pseudovirus neutralization IC50” value was > 10 µg/mL. B6 was tested, and the “pseudovirus neutralization IC50” value was 0.49 µg/mL. B7 was tested, and the “pseudovirus neutralization IC50” value was > 10 µg/mL. In the case of B8, the “pseudovirus neutralization IC50” value is reported as 0.399 µg/mL. With B9 the “pseudovirus neutralization IC50” value was 0.855 µg/mL. In the case of B10, the “pseudovirus neutralization IC50” value is reported as > 10 µg/mL. B11 was tested, and the “pseudovirus neutralization IC50” value was 0.001 µg/mL. With B12 the “pseudovirus neutralization IC50” value was > 10 µg/mL.

These binders were tested against SARS-CoV-2 Omicron BA.2 spike pseudovirus in the same assay as above.
Description: as §1
For B1, the “pseudovirus neutralization IC50” value was 0.00114 µg/mL. With B2 the “pseudovirus neutralization IC50” value was 0.0164 µg/mL. With B3 the “pseudovirus neutralization IC50” value was 0.466 µg/mL. In the case of B4, the “pseudovirus neutralization IC50” value is reported as 4.82 µg/mL. In the case of B5, the “pseudovirus neutralization IC50” value is reported as > 10 µg/mL. For B6, the “pseudovirus neutralization IC50” value was 0.443 µg/mL. B7 was tested, and the “pseudovirus neutralization IC50” value was > 10 µg/mL. With B8 the “pseudovirus neutralization IC50” value was 0.444 µg/mL. With B9 the “pseudovirus neutralization IC50” value was 0.83 µg/mL. With B10 the “pseudovirus neutralization IC50” value was > 10 µg/mL. With B11 the “pseudovirus neutralization IC50” value was 0.000896 µg/mL. With B12 the “pseudovirus neutralization IC50” value was > 10 µg/mL.

The binders below were run against SARS-CoV-2 Omicron BA.2.75 spike pseudovirus in the same assay as above.
Description: as §1
With B1 the “pseudovirus neutralization IC50” value was 0.0104 µg/mL. For B2, the “pseudovirus neutralization IC50” value was 0.0284 µg/mL. In the case of B3, the “pseudovirus neutralization IC50” value is reported as 0.796 µg/mL. For B4, the “pseudovirus neutralization IC50” value was 4.67 µg/mL. In the case of B5, the “pseudovirus neutralization IC50” value is reported as > 10 µg/mL. B6 was tested, and the “pseudovirus neutralization IC50” value was 0.37 µg/mL. For B7, the “pseudovirus neutralization IC50” value was > 10 µg/mL. In the case of B8, the “pseudovirus neutralization IC50” value is reported as 0.472 µg/mL. B9 was tested, and the “pseudovirus neutralization IC50” value was 1.05 µg/mL. In the case of B10, the “pseudovirus neutralization IC50” value is reported as > 10 µg/mL. For B11, the “pseudovirus neutralization IC50” value was 0.0053 µg/mL. With B12 the “pseudovirus neutralization IC50” value was > 10 µg/mL.

Each binder was assayed against SARS-CoV-2 Omicron BA.5 spike pseudovirus in the same assay as above.
Description: as §1
B1 was tested, and the “pseudovirus neutralization IC50” value was 0.00181 µg/mL. B2 was tested, and the “pseudovirus neutralization IC50” value was 8.24 µg/mL. B3 was tested, and the “pseudovirus neutralization IC50” value was 0.59 µg/mL. In the case of B4, the “pseudovirus neutralization IC50” value is reported as 3.2 µg/mL. In the case of B5, the “pseudovirus neutralization IC50” value is reported as > 10 µg/mL. For B6, the “pseudovirus neutralization IC50” value was > 10 µg/mL. With B7 the “pseudovirus neutralization IC50” value was > 10 µg/mL. For B8, the “pseudovirus neutralization IC50” value was 6.88 µg/mL. With B9 the “pseudovirus neutralization IC50” value was > 10 µg/mL. For B10, the “pseudovirus neutralization IC50” value was > 10 µg/mL. In the case of B11, the “pseudovirus neutralization IC50” value is reported as 0.16 µg/mL. For B12, the “pseudovirus neutralization IC50” value was > 10 µg/mL.

These binders were tested against SARS-CoV-2 Omicron BQ.1.1 spike pseudovirus in the same assay as above.
Description: as §1
B1 was tested, and the “pseudovirus neutralization IC50” value was > 10 µg/mL. With B2 the “pseudovirus neutralization IC50” value was > 10 µg/mL. With B3 the “pseudovirus neutralization IC50” value was 4.65 µg/mL. With B4 the “pseudovirus neutralization IC50” value was 3.44 µg/mL. B5 was tested, and the “pseudovirus neutralization IC50” value was > 10 µg/mL. B6 was tested, and the “pseudovirus neutralization IC50” value was > 10 µg/mL. B7 was tested, and the “pseudovirus neutralization IC50” value was > 10 µg/mL. With B8 the “pseudovirus neutralization IC50” value was > 10 µg/mL. For B9, the “pseudovirus neutralization IC50” value was > 10 µg/mL. For B10, the “pseudovirus neutralization IC50” value was > 10 µg/mL. B11 was tested, and the “pseudovirus neutralization IC50” value was 3.41 µg/mL. B12 was tested, and the “pseudovirus neutralization IC50” value was > 10 µg/mL.

The binders below were run against SARS-CoV-2 Omicron XBB spike pseudovirus in the same assay as above.
Description: as §1
For B1, the “pseudovirus neutralization IC50” value was > 10 µg/mL. B2 was tested, and the “pseudovirus neutralization IC50” value was > 10 µg/mL. For B3, the “pseudovirus neutralization IC50” value was 5.55 µg/mL. B4 was tested, and the “pseudovirus neutralization IC50” value was 3.56 µg/mL. B5 was tested, and the “pseudovirus neutralization IC50” value was > 10 µg/mL. In the case of B6, the “pseudovirus neutralization IC50” value is reported as > 10 µg/mL. B7 was tested, and the “pseudovirus neutralization IC50” value was > 10 µg/mL. In the case of B8, the “pseudovirus neutralization IC50” value is reported as 7.99 µg/mL. With B9 the “pseudovirus neutralization IC50” value was 5.2 µg/mL. With B10 the “pseudovirus neutralization IC50” value was > 10 µg/mL. For B11, the “pseudovirus neutralization IC50” value was > 10 µg/mL. In the case of B12, the “pseudovirus neutralization IC50” value is reported as > 10 µg/mL.

The binders below were run against SARS-CoV-2 early D614G spike pseudovirus in the same assay as above.
Description: as §1
B1 was tested, and the “pseudovirus neutralization IC50” value was 0.00118 µg/mL. B2 was tested, and the “pseudovirus neutralization IC50” value was 0.0247 µg/mL. B3 was tested, and the “pseudovirus neutralization IC50” value was 0.277 µg/mL. B4 was tested, and the “pseudovirus neutralization IC50” value was 0.306 µg/mL. In the case of B5, the “pseudovirus neutralization IC50” value is reported as > 10 µg/mL. For B6, the “pseudovirus neutralization IC50” value was 0.565 µg/mL. For B7, the “pseudovirus neutralization IC50” value was > 10 µg/mL. B8 was tested, and the “pseudovirus neutralization IC50” value was 0.185 µg/mL. In the case of B9, the “pseudovirus neutralization IC50” value is reported as 1.39 µg/mL. For B10, the “pseudovirus neutralization IC50” value was 4.46 µg/mL. With B11 the “pseudovirus neutralization IC50” value was 0.00546 µg/mL. B12 was tested, and the “pseudovirus neutralization IC50” value was > 10 µg/mL.

— the supplement of paper PMC9931576
